Experimental data published in patent US20220251174A1.

Biological target: SARS-CoV-2 Spike protein (D614G) on authentic virus BetaCoV/Munich/BavPat1/2020
Assay: cell-based or functional assay

| Substance | IC50 in authentic virus (D614G strain) neutralization assays [µg/mL] |
| --- | --- |
| REGN10933 (benchmark, human IgG1) (antibody) | 0.7 |
| REGN10987 (benchmark, human IgG1) (antibody) | 10.5 |
